# Test results published in ChEMBL document CHEMBL5113507, “Discovery of potent ebola entry inhibitors with (3S,4aS,8aS)-2-(3-amino-2-hydroxypropyl) decahydroisoquinoline-3-carboxamide scaffold” (Eur J Med Chem, 2022).
# What was measured:
# Huh-7 = conditions: Ebolavirus, time 2910.0 min
Compound,IC90 (Huh-7) [µM],IC50 (cells) [µM]
CC(C)(C)NC(=O)[C@@H]1C[C@@H]2CCCC[C@@H]2CN1C[C@H](O)CNCCc1ccc(Cl)cc1,1.27,1.2
CN(C)CCOc1ccc(/C(=C(/CCCl)c2ccccc2)c2ccccc2)cc1 [TOREMIFENE],0.78,–
